Assay results as given in PMC11808136, “Screening and identification of host signaling pathways for alleviating influenza-induced production of pro-inflammatory cytokines, IP-10, IL-8, and MCP-1, using a U937 cell-based influenza model” (Frontiers in Microbiology, 2025).
Values joined by “and” are separate entries in the source; they are usually repeats but may differ in a detail not shown here. Equal entries are not always repeated. Where two headings read alike, the source gives them in different places.

Assays:
[1] = test system: IP-10 production in influenza virus-infected U937 cells (H1N1); format: cell-based
[2] = test system: IL-8 production in influenza virus-infected U937 cells (H1N1); format: cell-based, Human
[3] = test system: MCP-1 production in influenza virus-infected U937 cells (H1N1); format: cell-based
[4] = test system: MCP-1 production in influenza virus-infected U937 cells (H3N2); format: cell-based, Human
[5] = test system: IP-10 production in influenza virus-infected U937 cells (H7N8); format: cell-based, Human
[6] = test system: IP-10 production in influenza virus-infected U937 cells (H3N2); format: cell-based, Human
[7] = test system: IL-8 production in influenza virus-infected U937 cells (H3N2); format: cell-based, Human
[8] = test system: MCP-1 production in influenza virus-infected U937 cells (H7N8); format: cell-based, Human
[9] = test system: IL-8 production in influenza virus-infected U937 cells (H7N8); format: cell-based, Human
[10] = secondary screen, Supplemental Table 1, ratio CC50 / EC50
[11] = secondary screen, Supplemental Table 1
[12] = H3N2, selectivity index CC50/EC50
[13] = H1N1, selectivity index CC50/EC50
[14] = H7N8, selectivity index CC50/EC50

Molecule | SI IP-10 [1, 10] | SI IL-8 [2, 11] | SI MCP-1 [3, 11] | further results
Cc1ccc(NC(=O)c2cccc(C(C)(C)C#N)c2)cc1Nc1ccc2ncn(C)c(=O)c2c1 [AZ 628] | 103 | 1000 | 556 | 
Cc1cc(Nc2nc(N[C@@H](C)c3ccc(F)cc3)c(C#N)cc2F)[nH]n1 [AZ 960] | 600 | 1200 | 1200 | 
Cc1cc(Nc2nc(N[C@@H](C)c3ncc(F)cn3)ncc2Cl)n[nH]1 [AZD1480] | 135 | 122 | 449 | SI MCP-1 [4, 12]: 209; SI IP-10 [1, 13]: 13; SI IP-10 [5, 14]: 1,747; SI IP-10 [6, 12]: 5,823; SI IL-8 [7, 12]: 14; SI IL-8 [2, 13]: 13; SI MCP-1 [8, 14]: 140; SI IL-8 [9, 14]: 466; SI MCP-1 [3, 13]: 16
O=C(Nc1cccc(Nc2ncc(Br)c(NCCc3cnc[nH]3)n2)c1)N1CCCC1 [BX-912] | 95 | 244 | 278 | 
Cc1ccc(NC(=O)c2ccc(CN3CC[C@H](N(C)C)C3)c(C(F)(F)F)c2)cc1Nc1nccc(-c2cncnc2)n1 [Bafetinib (INNO-406), Bafetinib] | 244 | 169 | 116 | 
CN1CCN(c2cccc(Nc3nc4c(-c5ccc(S(C)(=O)=O)cc5)cccn4n3)c2)CC1 [CEP-33779] | 48 | 29 | 44 | 
CC#CC(=O)Nc1ccc2ncnc(Nc3cccc(Br)c3)c2c1 [CL-387785 (EKI-785)] | 17 | 17 | 11 | 
C=CC(=O)Nc1cccc(Nc2nc(Nc3ccc(Oc4ccnc(C(=O)NC)c4)cc3)ncc2F)c1 [CNX-774] | 11 | 1550 | 97 | 
N#CCNC(=O)c1ccc(-c2ccnc(Nc3ccc(N4CCOCC4)cc3)n2)cc1 [CYT387] | 11 | 18 | 180 | 
CCS(=O)(=O)N1CCN(c2ccc(Nc3ncc(C(N)=O)c(NC4CC4)n3)cc2)CC1 [Cerdulatinib (PRT062070, PRT2070), Cerdulatinib] | 70 | 700 | 175 | 
Cc1nc(Nc2ncc(C(=O)Nc3c(C)cccc3Cl)s2)cc(N2CCN(CCO)CC2)n1 [Dasatinib] | 77 | 49 | 714 | SI MCP-1 [4, 12]: 5,501; SI IP-10 [1, 13]: >86; SI IP-10 [5, 14]: 7,143; SI IP-10 [6, 12]: 5,968; SI IL-8 [2, 13]: >53; SI MCP-1 [8, 14]: 2,277; SI IL-8 [9, 14]: 743; SI MCP-1 [3, 13]: >526
C=CC(=O)Nc1ccc(CN2C(=O)N(c3cc(OC)cc(OC)c3)Cc3cnc(Nc4ccc(N5CCN(C)CC5)cc4)nc32)cc1 [FIIN-2] | 52 | 555 | 119 | 
COc1cc(Nc2ncc(F)c(Nc3ccc4c(n3)N(COP(=O)(O)O)C(=O)C(C)(C)O4)n2)cc(OC)c1OC [Fostamatinib (R788), Fostamatinib] | 80 | 118 | 235 | 
Cc1ccc(Nc2ncc3c(n2)N(C)C(=O)N(c2cc(NC(=O)c4cccc(C(F)(F)F)c4)ccc2C)C3)cn1 [GNF-7] |  | 6600 |  | SI MCP-1 [4]: >1,000; SI IP-10 [5]: >2,564; SI IP-10 [6]: >20,000; SI IL-8 [7]: >500; SI MCP-1 [8]: >125; SI IL-8 [9]: >1,000
Cc1ccc(C(=O)Nc2ccc(CN3CCN(C)CC3)c(C(F)(F)F)c2)cc1C#Cc1cnc2[nH]ncc2c1 [GZD824] | 960 | 960 | 960 | 
O=C(c1ccc(Nc2nccc(-c3cc4ccccc4s3)n2)cc1)N1CCC(N2CCCC2)CC1 [IKK-16 (IKK Inhibitor VII)] | 1780 | 1780 | 1780 | 
O=C(Nc1cc(C(F)(F)F)cc(C(F)(F)F)c1)c1cc(Cl)ccc1O [IMD 0354] | 14 | 55 | 18 | 
CC(C)n1nc(-c2ccc3oc(N)nc3c2)c2c(N)ncnc21 [INK 128 (MLN0128)] | 49 | 148 | 148 | 
CC(C)(C)Cn1c(N)nc2ccc(-c3[nH]c(C(C)(C)C)nc3-c3ccc(F)cc3)nc21 [LY2228820] | 14 | 10000 | 22 | 
Cc1cc(Nc2cc(CN3CCOCC3)c3nc(C)c(Cc4ccc(Cl)cc4F)n3n2)n[nH]1 [LY2784544] | 2600 | 5200 | 5200 | 

Molecule | SI IP-10 [1, 10] | SI IL-8 [2, 11] | SI MCP-1 [3, 11] | further results
C[C@@H](Oc1ccc2[nH]nc(/C=C/c3cnn(CCO)c3)c2c1)c1c(Cl)cncc1Cl [LY2874455] | 680 | 680 | 680 | 
CNS(=O)(=O)C[C@H]1CC[C@H](N(C)c2ncnc3[nH]ccc23)CC1 [Oclacitinib] | 278 | 1000 | 263 | 
NC(=O)c1cnc2[nH]ccc2c1N[C@@H]1[C@@H]2CC3C[C@H]1C[C@@](O)(C3)C2 [Peficitinb (ASP015K, JNJ-54781532), Peficitinb] |  | 3470 |  | SI IP-10 ([1]; ratio CC50 / EC50): 1735; SI MCP-1 [3]: 3470
CCOc1cc2ncc(C#N)c(Nc3ccc(F)c(Cl)c3)c2cc1NC(=O)/C=C/CN(C)C [Pelitinib (EKB-569), Pelitinib] |  |  |  | SI IP-10 ([1]; ratio CC50 / EC50): 13; SI IL-8 [2]: 85; SI MCP-1 [3]: 85
C=CC(=O)N1CCC(Oc2cc3c(Nc4ccc(Cl)c(Cl)c4F)ncnc3cc2OC)CC1 [Poziotinib (HM781-36B), Poziotinib] | 42 | 71 | 37 | 
COc1cc(Nc2ncc(F)c(Nc3ccc4c(n3)NC(=O)C(C)(C)O4)n2)cc(OC)c1OC [R406 (free base)] | 143 | 36 | 88 | 
COc1cc(Nc2ncc(F)c(Nc3ccc4c(n3)NC(=O)C(C)(C)O4)n2)cc(OC)c1OC [R406] |  | 122 |  | SI MCP-1 [4]: >1,617; SI IP-10 [5]: >1,111; SI IP-10 [6]: >19,607; SI IL-8 [7]: >145; SI IL-8 [2]: >769; SI MCP-1 [8]: >2,857; SI IL-8 [9]: >1,136; SI MCP-1 [3]: >416 and 370
COc1cc(Nc2ncc(F)c(Nc3ccc4c(n3)N(COP(=O)([O-])[O-])C(=O)C(C)(C)O4)n2)cc(OC)c1OC.[Na+].[Na+] [R788 (Fostamatinib) Disodium] | 19 | 123 | 46 | 
CNC(=O)c1cc(Oc2ccc(NC(=O)Nc3ccc(Cl)c(C(F)(F)F)c3)c(F)c2)ccn1 [Regorafenib (BAY 73-4506), Regorafenib] | 11 | 33 | 12 | 
N#CC[C@H](C1CCCC1)n1cc(-c2ncnc3[nH]ccc23)cn1 [Ruxolitinib (INCB018424), Ruxolitinib] |  |  |  | SI IP-10 ([1]; ratio CC50 / EC50): 1429; SI IL-8 [2]: 833; SI MCP-1 [3]: 3333
Cc1cc(Nc2ncc3c(n2)N(C)C(=O)N(c2cc(NC(=O)c4cccc(C(F)(F)F)c4)ccc2C)C3)n(C)n1 [SC1] |  | 20000 |  | SI IP-10 ([1]; ratio CC50 / EC50): 10000; SI MCP-1 [3]: 2500
Cc1c[nH]c2nc(Nc3ccc(N4CCN(C)CC4)c(F)c3)nc(-c3cccc(CC#N)c3)c12 [SGI-7079] | 770 | 770 | 770 | 
CCN(CC)CCNC(=O)c1c(C)[nH]c(/C=C2\C(=O)Nc3ccc(F)cc32)c1C [Sunitinib Malate] | 38 | 497 | 71 | 
Cn1c(=O)c(F)c(Nc2ccc(I)cc2F)c2c(=O)n(C[C@@H](O)CO)cnc21 [TAK-733] |  |  |  | SI IP-10 ([1]; ratio CC50 / EC50): 32; SI IL-8 [2]: 9000; SI MCP-1 [3]: 1125
NC(=O)Nc1sc(-c2ccc(F)cc2)cc1C(N)=O [TPCA-1] | 157 | 39 | 92 | 
CC(C)(C)c1cc(C=C(C#N)C#N)cc(C(C)(C)C)c1O [Tyrphostin 9] | 92 | 207 | 103 | 
C=CC(=O)Nc1cccc(Oc2nc(Nc3ccc(N4CCN(C)CC4)cc3)ncc2Cl)c1 [WZ3146] | 21 | 1400 | 2800 | 
O=C(Nc1ccc(-c2ccnc(Nc3ccc(N4CCOCC4)cc3)n2)cc1)C1CCCN1 (stereo not drawn) [XL019] | 27 | 52 | 28 | 
S-Ruxolitinib [S-Ruxolitinib (INCB018424)] | 1250 | 3333 | 1667 | 
